## Library screen at single concentrations

Data taken from ChEMBL document CHEMBL3988442, “University of Dundee, Small-Polar-MMV Screening Library” (2021).

Mtb glucose medium: 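Growth of Mycobacterium tuberculosis over 3 days (7H9 medium with glucose and tyloxapol); the read-out is not stated. Tested at 50 µM. The record gives no direction; compounds that gave an IC50 in retests scored well above the rest, so higher reads as more growth inhibition. Of about 69,000 compounds tested this way, about 760 (1.1%) reached 50% or more in at least one test.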
Mtb cholesterol medium: 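Growth of Mycobacterium tuberculosis over 4 days (cholesterol / DPPC medium with tyloxapol); the read-out is not stated. Concentration: 50 µM. Higher reads as more growth inhibition (inferred: compounds with an IC50 in retests scored well above the rest). About 69,000 compounds were tested under these conditions; 0.54% (about 370) showed 50% or more at least once.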

Results are given as percent effect.
How 0% and 100% were set is not recorded. Most values in the screen are low, and negative values occur.
Many other results are left out here, so strong results are more common than in the screen.
Two or more numbers in one place are separate tests of the same structure; such repeats can differ widely.
A dash means the value is not listed here; it may have been measured.

compound	Mtb glucose medium	Mtb cholesterol medium
CCNc1cc2c(nn1)CCN(C(=O)C1COc3ccccc3C1)C2 (stereo not given)	54.14%	50.13%
COc1coc(CN2CCCC(CCc3ccccc3F)C2)cc1=O (stereo not given)	26.11% & 47.04%	-
O=C(NCC1CCCCO1)c1ccc(-c2cccs2)[nH]c1=O (stereo not given)	6.231%	-6.781% & -14.58%
Cc1ccc2oc(N3CCN(CC(=O)NC(C)C)CC3)nc2c1	6.792%	-
COc1ccc(C2CCCN2S(=O)(=O)N(C)C)cc1 (stereo not given)	-3.523%	-
CN(Cc1ccc(F)cc1)C(=O)Cn1nc(-c2ccc(F)cc2)oc1=O	-	-18.34%
O=C(c1cc(-c2ccco2)cs1)N1CCCC1	66.55%	-
CCN1CCN(Cc2csc(C(C)C)n2)CC1	8.582%	-
CCC1CN(CC(=O)NCCN2CCCCCC2)c2ccccc2S1 (stereo not given)	66.18%	-
O=C(c1cc(Br)ccc1Cl)N1CCN(Cc2ccco2)CC1	6.413%	-2.507%
CCCC(=O)N1CCC2(CC1)OCCO2	-6.475%	-
N[C@@H]1CCN(Cc2cc(-c3ccccc3OC(F)(F)F)no2)C[C@H]1O	29.44%	-
Cc1nc2ccccc2nc1CN(C)C1CCCN(c2cccnn2)C1 (stereo not given)	4.709%	-
CCC(CNC(=O)c1ccccc1Br)N1CCc2ccccc2C1 (stereo not given)	17.94% & 10.77%	-
COc1ccc(-c2nc(CN(C)Cc3nncn3C)c(C)o2)c(C)c1C	62.67%	-
COc1ccnc(N2CCCN(c3nc(C4CC4)ns3)CC2)n1	74.83%	-
CC(NCc1ccc(C(N)=O)cc1)c1ccc(Cl)c(Cl)c1.Cl (stereo not given)	11.59%	-
OC(COCc1ccco1)CSc1nnc2ccccn12 (stereo not given)	8.62%	-
CC(C)(C)NC(=O)CNc1ccc(C#N)c(C(F)(F)F)c1	25.28%	-
Cn1cc(C[C@H]2[C@H](O)CCN2Cc2ccc(F)cc2)cn1.O=C(O)C(F)(F)F	-	-11.09% & -18.16%
Cc1cc(C)n(-c2nc(NCCCO)c3c4c(sc3n2)CCCC4)n1	60.08%	-
COC(=O)NCC(=O)N1CCc2cc(Cl)cc(Cl)c2C1	52.14%	-
CC(=O)N1CCc2nc(-c3ccccc3)nc(NC(C)C)c2CC1	0.5089%	-
COc1ccccc1-c1ncc(CN2CCCC(CCC(N)=O)C2)s1 (stereo not given)	30.79%	-
COC(=O)CSCc1nc(-c2ccc(Cl)cc2)no1	43.6% & 45.61%	-4.731%
O=C(Cc1cccnc1)NC1COc2ccccc2C1=O (stereo not given)	-8.376%	13.75%
O=C(O)C(F)(F)F.O=C(O)C(F)(F)F.c1cncc(-c2ccc3c(c2)CCC32CCN(Cc3ccco3)CC2)c1	63.92% & 66.71%	54.78%
CC(C)(C)OC(=O)NCCc1csc(N2CCCC2)n1	54.05%	-
COc1cn(-c2ccccc2)nc1C(=O)NCCCN1CCCC(C)C1 (stereo not given)	8.589%	12.76%
O=C(NCCN1CCCS1(=O)=O)c1scnc1Cl	6.981%	-
CN(Cc1cnn(C)c1)C(=O)c1cc2ccccc2c(=O)[nH]1	-8.918%	-24.12%
Cc1ccc(CN(Cc2ccncc2)C2CCN(C)CC2)s1	102.1% & -10.55%	-
CC(C)c1ccc(NC(=O)c2ncc(C(N)=O)cc2Cl)cc1	3.901%	-
CCN1CCc2nc(N3CCOCC3)nc(NC(C)C)c2C1	9.417%	-
COc1ccccc1C(N)CC(C)C (stereo not given)	-10.92% & -0.11%	-6.457%
CCOc1ccc(C(=O)NCc2ccnc(N3CCCC3)c2)cn1	24.72% & 14.17%	4.165%
Br.O=C(CN(C1=NCCCCC1)c1ccc(Cl)cc1)c1ccccc1	85.68%	76.74%
Cn1cc(CN2CCC(F)(F)C3(CCN(c4cnccn4)C3)C2)cn1.O=C(O)C(F)(F)F.O=C(O)C(F)(F)F (stereo not given)	-	19.04% & 111.4%
Cc1nc(CNCC2CCCN2c2cccnn2)oc1C (stereo not given)	-27.24%	-10.24% & -19.35%
Cc1noc(CN(C)CC2(O)CCCN(CCC3CCCCC3)C2=O)n1 (stereo not given)	-	0.6647%
O=c1n(CCSCc2ccccc2F)nc2ccccn12	34.94%	-

For reference, 5 entries once more:

| compound | Mtb glucose medium | Mtb cholesterol medium |
|---|---|---|
| `CCCC(=O)N1CCC2(CC1)OCCO2` | -6.475% | - |
| `COc1ccccc1-c1ncc(CN2CCCC(CCC(N)=O)C2)s1` (stereo not given) | 30.79% | - |
| `CCN1CCN(Cc2csc(C(C)C)n2)CC1` | 8.582% | - |
| `CCC1CN(CC(=O)NCCN2CCCCCC2)c2ccccc2S1` (stereo not given) | 66.18% | - |
| `COc1ccccc1C(N)CC(C)C` (stereo not given) | -10.92% & -0.11% | -6.457% |